Compound potency records, mixed from different reports. Data source: NIAID ChemDB in PubChem.

All rows: enzyme or target tests; agent: HIV-1; target: Reverse transcriptase; read-out: Ki

Lines come from different laboratories, so protocols vary.

{"SMILES": "O=C(O)Cn1cnc2c(=O)[nH]c(NC(=O)OCc3ccccc3)nc21", "read by": "nucleotide incorporation / radiometric", "mutations": "Y181I", "strain": "NNRTI-resistant", "result": "12 µM"}
{"SMILES": "O=C(O)c1c[nH]c2ccc(Cl)cc2c1=O", "read by": "nucleotide incorporation / radiometric", "result": "5 µM"}
{"SMILES": "CC(C)=CCOc1cc(NC(=S)c2ccoc2C)ccc1Cl", "read by": "nucleotide incorporation / radiometric", "result": "0.004 µM"}
{"SMILES": "O=[N+]([O-])c1ccc(CCNC(=S)Nc2ccc(Br)cn2)cc1", "read by": "scintillation proximity", "result": "84 µM"}
{"SMILES": "Cc1cn([C@H]2C=C[C@@H](COP(=O)(O)OP(=O)(O)OP(=O)(O)O)O2)c(=O)[nH]c1=O", "read by": "fluorescence", "result": "0.0032 µM"}
{"SMILES": "Cc1ccc(CCNC(=S)Nc2ccc(Br)cn2)cc1", "read by": "scintillation proximity", "result": "0.25 µM"}
{"SMILES": "Cc1cn([C@H]2C[C@H](F)[C@@H](COP([O-])(=S)OP(=O)(O)C(F)(F)P(=O)(O)O)O2)c(=O)[nH]c1=O", "read by": "fluorescence", "result": "0.735 µM"}
{"SMILES": "Cc1cc2c(cc1C)n1cccc1c(=O)n2CCNC(=S)Nc1ccc(Br)cn1", "read by": "nucleotide incorporation", "mutations": "RT-Y188L", "result": "0.5 µM"}
{"SMILES": "Cc1cn([C@H]2C[C@H](N=[N+]=[N-])[C@@H](COP(=O)(O)OP(=O)(O)C(F)(F)P(=O)(O)O)O2)c(=O)[nH]c1=O", "read by": "fluorescence", "result": "0.041 µM"}
{"SMILES": "Cc1cn([C@H]2C[C@H](F)[C@@H](COP(=O)(O)OP(=O)(O)OP(=O)(O)O)O2)c(=O)[nH]c1=O", "read by": "fluorescence", "result": "0.0093 µM"}
{"SMILES": "Cc1cn([C@H]2C=C[C@@H](COP(=O)(O)OP(=O)(O)OP(=O)(O)O)O2)c(=O)[nH]c1=O", "read by": "nucleotide incorporation / radiometric", "mutations": "RT-Q151M", "result": "0.85 µM"}
{"SMILES": "Cc1cn([C@H]2C=C[C@@H](COP(=O)(O)OP(=O)(O)OP(=O)(O)O)O2)c(=O)[nH]c1=O", "read by": "RT activity", "mutations": "RT-Y188L", "result": "0.04 µM"}
{"SMILES": "Cc1cn([C@H]2C[C@H](N)[C@@H](COP(=O)(O)OP(=O)(O)OP(=O)(O)O)O2)c(=O)[nH]c1=O", "read by": "fluorescence", "result": "0.042 µM"}
{"SMILES": "Cc1cn([C@H]2C=C[C@@H](COP(=O)(O)OP(=O)(O)OP(=O)(O)O)O2)c(=O)[nH]c1=O", "mutations": "RT-H208Y", "result": "0.004 µM"}
{"SMILES": "Cc1cn([C@H]2C[C@H](N=[N+]=[N-])[C@@H](COP([O-])(=S)OP(=O)(O)C(F)(F)P(=O)(O)O)O2)c(=O)[nH]c1=O", "read by": "fluorescence", "result": "0.09 µM"}
{"SMILES": "O=C1CCN(CCOc2ccc(Cl)cc2C(=O)c2cc(Cl)cc(Cl)c2)C(=O)N1", "read by": "RT activity", "mutations": "Y181C", "conditions": "pseudotyped", "result": "0.36 µM"}
{"SMILES": "COc1ccc(/C=C/NC(=O)Nc2ccc(Cl)cn2)cc1OC", "read by": "nucleotide incorporation", "mutations": "RT-L100I", "result": "10 µM"}
{"SMILES": "Cc1c(C(C)c2c(F)cccc2F)nc(N(C)C)[nH]c1=O", "read by": "nucleotide incorporation / radiometric", "mutations": "RT-Y188L", "result": "0.7 µM"}
{"SMILES": "Cc1cc(C)cc(C(=O)c2cc(Cl)ccc2OCCN2CCC(=O)NC2=O)c1", "read by": "RT activity", "mutations": "Y181C", "conditions": "pseudotyped", "result": "8 µM"}
{"SMILES": "Nc1ccn([C@H]2CC[C@@H](COP(=O)(O)OP(=O)(O)OP(=O)(O)O)O2)c(=O)n1", "read by": "nucleotide incorporation / radiometric", "mutations": "RT-Q151M", "result": "0.66 µM"}
{"SMILES": "O=c1cnc2ccccc2n1CCNC(=S)Nc1ccc(Br)cn1", "read by": "nucleotide incorporation", "mutations": "RT-Y188L", "result": "0.8 µM"}
{"SMILES": "COc1ccc2c(c1)N(C(=O)OC(C)C)[C@@H](CSC)C(=S)N2", "read by": "RT activity", "strain": "IIIB", "result": "0.01 µM"}
{"SMILES": "Nc1ncnc2c1ncn2[C@@H]1O[C@H](COP(=O)(O)OP(=O)(O)OP(=O)(O)O)C[C@@H]1F", "read by": "nucleotide incorporation / radiometric", "mutations": "RT-Q151M", "result": "6.4 µM"}
{"SMILES": "O=c1c2cccn2ccn1CCNC(=S)Nc1ccc(Br)cn1", "read by": "nucleotide incorporation", "mutations": "RT-Y181I", "result": "0.43 µM"}
{"SMILES": "Cc1cn([C@H]2C[C@H](N=[N+]=[N-])[C@@H](CO[P@@](=O)([Se-])OP(=O)(O)C(F)(F)P(=O)(O)O)O2)c(=O)[nH]c1=O", "read by": "fluorescence", "result": "1.37 µM"}